Measured values from several laboratories, pooled; numbers as filed in NIAID ChemDB.

All rows: growth or infection tests; organism: Herpes simplex virus 2; measure: EC50

Conditions beyond the fields shown may differ between rows. ECn is the concentration giving n% inhibition of infection, replication or growth.

SMILES | strain | method | cell line | value
Cc1cn([C@@H]2O[C@H](CO)[C@H]2CO)c(=O)[nH]c1=O | 8711 (TK-) | plaque count | HFF | >100 µg/mL
C=Cc1cc([C@H]2C[C@H](O)[C@@H](CO)O2)c(F)cc1F | 196 | cytopathic effect | E6SM | >400 µg/mL
Nc1nc2c(ncn2CC[C@H](O)CO)c(=O)[nH]1 | 72 | plaque count | VERO | 32 µM
CCCCCCCC/C=C\CCCCCCCOCCOP1(=O)CO[C@@H](Cn2ccc(N)nc2=O)CO1 | G | plaque count | HFF | 0.04 µM
Nc1nc(=O)n([C@@H]2O[C@H](CO)[C@@H](O)[C@@H]2F)cc1I | G | plaque count | VERO | 0.03 µM
Cc1cn([C@@H]2O[C@H](CO)[C@@H](O)[C@@H]2O)c(=O)[nH]c1=O | MS-M1 | plaque count | VERO | 3.6 µM
O=C(O)P(=O)(O)O | G-FMAU-C1 | plaque count | VERO | 47 µM
Nc1ccn([C@@H]2O[C@H](CO)[C@@H](O)[C@@H]2O)c(=O)n1 | MS-M1 | plaque count | VERO | 0.1 µM
Nc1nc2c(ncn2COCCO)c(=O)[nH]1 | 91075 | plaque count | VERO | 0.5 µM
CCCCCCCCCCCCOCCCOP(=O)(O)CO[C@H](CO)Cn1ccc(N)nc1=O | SR | plaque count | HFF | 0.7 µM
O=C(NCc1ccc(Cl)cc1)c1cn2c3c(cc(CN4CCOCC4)cc3c1=O)OC(c1cccnc1)C2 | MS (WILD TYPE) | plaque count | HFF | 6 µM
Nc1ccn([C@H]2O[C@@H](CO)[C@H](O)[C@H]2F)c(=O)n1 | G-FAU-C2 | plaque count | VERO | 1.4 µM
CCCCCCCC/C=C\CCCCCCCOCCCOP1(=O)CO[C@@H](Cn2ccc(N)nc2=O)CO1 | G | plaque count | HFF | 0.8 µM
CCc1cn([C@H]2C[C@H](O)[C@@H](CO)O2)c(=O)[nH]c1=O | G-FMAU-C1 | plaque count | VERO | 773 µM
Cn1cc(C(=O)NCc2ccc(Cl)cc2)c(=O)c2cc(CN3CCOCC3)ccc21 | 13077 (ACV-resistant) | plaque count | HFF | 2.2 µM
Nc1nc2c(ncn2C/C=C\CO)c(=O)[nH]1 | 72 | plaque count | VERO | 3.2 µM
CCCCCCCCCCCCCCCCCCOC[C@H](COP(=O)(O)CO[C@H](CO)Cn1ccc(N)nc1=O)OCc1ccccc1 | SR | plaque count | HFF | 0.09 µM
Nc1nc2c(ncn2COCCO)c(=O)[nH]1 | R-324 (acyclovir-resistant) | cytopathic effect | HFF | >50 µg/mL
Nc1ncnc2c1ncn2[C@@H]1O[C@H](CO)[C@@H](O)[C@@H]1O | MS | plaque count | VERO | 10.6 µM
OC[C@H]1O[C@@H](c2cc(C#CI)c(F)cc2F)C[C@@H]1O | 196 | cytopathic effect | E6SM | >400 µg/mL
CCCCCCCC/C=C\CCCCCCCOCCCOP(=O)(O)CO[C@H](CO)Cn1ccc(N)nc1=O | G | plaque count | HFF | 0.09 µM
Nc1nc2c(ncn2COCCO)c(=O)[nH]1 | SR | plaque count | HFF | 0.6 µg/mL
OC[C@H]1O[C@@H](c2cc(C#CBr)c(F)cc2F)C[C@@H]1O | G | cytopathic effect | E6SM | >400 µg/mL
Cc1cn([C@@H]2O[C@H](CO)[C@@H](O)[C@@H]2F)c(=O)[nH]c1=O | G-FMAU-C1 | plaque count | VERO | 8.5 µM
O=C(O)P(=O)(O)O | MS | plaque count | MEF | 32.8 µg/mL
Nc1nc2c(ncn2CC(CO)CCO)c(=O)[nH]1 | B4327 | plaque count | VERO | 14 µM
Nc1ccn(C[C@H]2COP(=O)(O)CO2)c(=O)n1 | G | plaque count | HFF | 17.6 µM

A second listing of 4 rows from above:

SMILES,strain,method,cell line,value
CCCCCCCCCCCCOCCCOP(=O)(O)CO[C@H](CO)Cn1ccc(N)nc1=O,SR,plaque count,HFF,0.7 µM
Nc1ccn([C@H]2O[C@@H](CO)[C@H](O)[C@H]2F)c(=O)n1,G-FAU-C2,plaque count,VERO,1.4 µM
Nc1ncnc2c1ncn2[C@@H]1O[C@H](CO)[C@@H](O)[C@@H]1O,MS,plaque count,VERO,10.6 µM
OC[C@H]1O[C@@H](c2cc(C#CBr)c(F)cc2F)C[C@@H]1O,G,cytopathic effect,E6SM,>400 µg/mL